For experiment [1], the system named is Hepatitis C virus. Put plainly: Antiviral activity against HCV assessed as inhibition of viral RNA replication in replicon cells by luciferase reporter gene assay. It counts as functional, Hepacivirus hominis.
Experiment [2] concerns the target Genome polyprotein (Hepatitis C virus genotype 1b (isolate Con1) (HCV), UniProt Q9WMX2). Put plainly: Inhibition of HCV genotype 1b Con1 NS5B RNA dependent RNA polymerase.
The target in experiment [3] is T1, RNA-directed RNA polymerase (Hepacivirus hominis, UniProt O39930). Put plainly: Inhibition of HCV genotype 2a JFH NS5B RNA dependent RNA polymerase. Set-up: species or system Hepatitis C virus subtype 2a.
For experiment [4], the target named is Genome polyprotein (Hepatitis C virus genotype 3a (isolate NZL1) (HCV), UniProt Q81258). Put plainly: Inhibition of HCV genotype 3a NZL1 NS5B RNA dependent RNA polymerase.
The target in experiment [5] is T1, RNA-directed RNA polymerase. Put plainly: Inhibition of HCV genotype 4a1 NS5B RNA dependent RNA polymerase.

Chains of the proteins cited; added tags and fusions are not shown. Residues count along the entry.
UniProt Q9WMX2, 2420-3010 limits assumed: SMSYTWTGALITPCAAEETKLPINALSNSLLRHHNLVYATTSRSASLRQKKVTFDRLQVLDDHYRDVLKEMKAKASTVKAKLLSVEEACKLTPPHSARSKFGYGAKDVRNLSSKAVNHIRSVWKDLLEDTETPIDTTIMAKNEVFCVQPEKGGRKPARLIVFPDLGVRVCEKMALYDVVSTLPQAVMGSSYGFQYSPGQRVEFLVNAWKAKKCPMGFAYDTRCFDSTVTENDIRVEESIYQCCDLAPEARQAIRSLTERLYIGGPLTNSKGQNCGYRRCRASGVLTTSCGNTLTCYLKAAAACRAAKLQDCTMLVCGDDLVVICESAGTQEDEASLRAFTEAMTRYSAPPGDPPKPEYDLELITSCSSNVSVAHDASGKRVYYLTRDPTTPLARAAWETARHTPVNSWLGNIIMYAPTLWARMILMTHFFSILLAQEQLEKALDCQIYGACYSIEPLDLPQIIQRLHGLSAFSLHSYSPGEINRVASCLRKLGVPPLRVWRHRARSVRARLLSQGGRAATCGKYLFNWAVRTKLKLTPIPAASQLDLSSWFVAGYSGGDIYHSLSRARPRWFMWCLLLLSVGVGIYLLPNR
UniProt O39930, 1-591: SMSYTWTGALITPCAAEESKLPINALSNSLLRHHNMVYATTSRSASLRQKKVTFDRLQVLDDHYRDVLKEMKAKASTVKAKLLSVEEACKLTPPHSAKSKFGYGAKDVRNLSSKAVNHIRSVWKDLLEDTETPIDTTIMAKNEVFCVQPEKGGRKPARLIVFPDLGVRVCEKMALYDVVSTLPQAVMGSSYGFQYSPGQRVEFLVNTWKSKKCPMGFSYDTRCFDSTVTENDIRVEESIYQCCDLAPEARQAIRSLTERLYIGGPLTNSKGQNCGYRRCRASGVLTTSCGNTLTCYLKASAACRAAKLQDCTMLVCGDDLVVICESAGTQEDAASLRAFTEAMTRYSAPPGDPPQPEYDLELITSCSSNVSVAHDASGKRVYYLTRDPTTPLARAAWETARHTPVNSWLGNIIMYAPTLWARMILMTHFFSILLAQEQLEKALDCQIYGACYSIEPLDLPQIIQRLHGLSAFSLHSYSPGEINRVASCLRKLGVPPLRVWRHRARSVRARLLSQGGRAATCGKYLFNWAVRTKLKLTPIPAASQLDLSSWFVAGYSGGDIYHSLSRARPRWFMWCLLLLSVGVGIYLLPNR
UniProt Q81258, 2431-3021 limits assumed: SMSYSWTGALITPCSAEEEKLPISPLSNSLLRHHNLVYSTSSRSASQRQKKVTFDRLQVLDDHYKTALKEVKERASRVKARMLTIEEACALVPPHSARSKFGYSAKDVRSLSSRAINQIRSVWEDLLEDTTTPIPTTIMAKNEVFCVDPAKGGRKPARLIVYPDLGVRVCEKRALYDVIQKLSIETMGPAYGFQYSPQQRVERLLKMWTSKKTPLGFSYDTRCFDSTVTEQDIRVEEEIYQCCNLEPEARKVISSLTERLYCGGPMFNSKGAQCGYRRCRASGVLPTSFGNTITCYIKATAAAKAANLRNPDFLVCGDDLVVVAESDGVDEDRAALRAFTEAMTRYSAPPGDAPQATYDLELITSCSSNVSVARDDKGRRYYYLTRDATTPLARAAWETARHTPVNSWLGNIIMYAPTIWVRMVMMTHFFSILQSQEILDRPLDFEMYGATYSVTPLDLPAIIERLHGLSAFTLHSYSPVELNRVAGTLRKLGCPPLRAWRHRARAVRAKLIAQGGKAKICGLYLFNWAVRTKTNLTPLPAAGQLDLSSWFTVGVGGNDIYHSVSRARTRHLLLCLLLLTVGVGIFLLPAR

“And” between values parts separate entries of the source, which are not always exact repeats. Equal entries are not always repeated.

The EC50 is the concentration needed to bring the measured effect to its halfway point. Broadly, the IC50 is the midpoint of a concentration-inhibition curve.

For the compound `COP(=O)(Nc1nc(-c2ccc(-c3cc4nc(C)cc(N)n4n3)cc2)sc1C(=O)O)c1ccc(C)cc1C` (stereo not given), the half-maximal effective concentration (EC50) in experiment [1] amounted to 0.3 nM. The IC50 in experiment [2] stood at 14.3 nM; in experiment [3] it was 272 nM; in experiment [4], 119 nM; in experiment [5], 24.4 nM.

Regarding `COP(=O)(Nc1nn(-c2ccc(-c3cc4nccc(N)n4n3)cc2)cc1C(=O)O)c1ccc(C)cc1C` (stereo not given), in experiment [1], the EC50 was 1 nM. Also, the IC50 in experiment [2] stood at 16.3 nM; in experiment [3], 335 nM; in experiment [4] it was 335 nM; in experiment [5], 75.3 nM.

As to `COP(=O)(Nc1nn(-c2ccc(-c3cc4ncccn4n3)cc2)cc1C(=O)O)c1ccc(C)cc1C` (stereo not given), in experiment [1], the EC50 is 17.8 nM. Besides, the IC50 in experiment [2] amounted to 33.5 nM; in experiment [3], 3550 nM; in experiment [4], 5720 nM; in experiment [5], 431 nM.

On to `COP(=O)(Nc1nn(-c2ccc(-c3cc4nc(C)cc(N)n4n3)cc2)cc1C(=O)O)c1ccc(C)cc1C` (stereo not given), for which the concentration giving a half-maximal response (EC50) in experiment [1] was 0.4 nM. Further, the IC50 was 9.9 nM and 18.5 nM and 12.7 nM in experiment [2]; 254 nM in experiment [3]; 181 nM in experiment [4]; 25.7 nM in experiment [5].

Turning to `COP(=O)(Nc1nc(-c2ccc(-c3cc4nccc(N)n4n3)cc2)sc1C(=O)O)c1ccc(C)cc1C` (stereo not given), in experiment [1], the half-maximal effective concentration (EC50) is 0.8 nM. Also, the half-maximal inhibitory concentration (IC50) in experiment [2] was 18 nM; in experiment [3], 337 nM; in experiment [4], 160 nM; in experiment [5], 51.7 nM.

Take `COP(=O)(Nc1nn(-c2ccc(-c3cc4nc(C)ccn4n3)cc2)cc1C(=O)O)c1ccc(C)cc1C` (stereo not given): the EC50 in experiment [1] amounted to 5.6 nM. The IC50 in experiment [2] was 25.3 nM; in experiment [3], 2620 nM; in experiment [4] it was 3090 nM; in experiment [5], 197 nM.

The values above are taken from ChEMBL document CHEMBL4431344, “Synthesis of potent and broad genotypically active NS5B HCV non-nucleoside inhibitors binding to the thumb domain allosteric site 2 of the viral polymerase” (Bioorg Med Chem Lett, 2016).
